{
  "source": "paper PMC12245108",
  "about": "(Advanced Science, 2025)",
  "biological_target": "MPXV I7L protease (Monkeypox virus, UniProt Q8V512)",
  "experiment": "FRET-based protease assay (N-tagged MPXV I7L protease)",
  "format": "biochemical",
  "data": [
    {"smiles": "CCOC(=O)[C@H]1O[C@@H]1C(=O)N[C@@H](CC(C)C)C(=O)NCCC(C)C", "values": [
      {"measurement": "IC50", "setting": "FRET-based protease assay, N-tagged protease", "result": 9.1, "unit": "µM"},
      {"measurement": "inhibition rate", "setting": "compound at 100 µM, 200 nM N-tagged protease, 5 µM substrate, 75 mM NaCl, 50% glycerol, pH 7.5", "result": 102.5, "unit": "%"}
    ]}
  ]
}
